A mixed list of measured activities; the numbers were collected in NIAID ChemDB.

All rows: whole-cell or culture tests; agent: Rhinovirus; read-out: inhibition

Neighbouring rows are from separate reports. Inhibition is in % at the dose shown (toxicity tests: loss of growth or viability). An empty or dashed field is not shown. a–b is a range or a potency band.

smiles,dose,cell line,strain or isolate,method,value
Cc1cc(Cl)ccc1Cn1cnc2c(N(C)C)nc(C(F)(F)F)nc21,8 µM,M-HELA,Serotype 13,plaque count,23%
Nc1ccc(S(=O)(=O)[O-])c2c(S(=O)(=O)[O-])ccc(O)c12,10 µg/mL,Human embryonic lung cells,,cytopathic effect,80%
CCOc1cc(O)c(C(=O)/C=C/c2ccc(OC)cc2)c(OC)c1,0.775 µg/mL,,17 serotypes,,71%
NCS(=O)(=O)O,10 µg/mL,Human amnion AV3 cells,,cytopathic effect,50%
CN(C)c1nc(C(F)(F)F)nc2c1ncn2Cc1ccc(F)cc1,8 µM,M-HELA,Serotype 21,plaque count,34%
CCOC(=O)c1csc(N2CCN(Cc3cc(C)ccc3C)CC2)n1,5 µg/mL,,17 serotypes,,53%
CN(C)c1nc(C(F)(F)F)nc2c1ncn2Cc1ccc(Cl)c(N)c1,8 µM,M-HELA,Serotype 31,plaque count,29%
O=S(=O)(O)c1cc(O)c2c(O)cc(S(=O)(=O)O)cc2c1,50 µg/mL,Human amnion AV3 cells,,cytopathic effect,50%
O=C(O)Cc1csc(/N=C2\SC[C@@H]3Cc4ccccc4CN23)n1,20 µg/mL,MRC-5,Serotype 15,cytopathic effect,80–100%
N#Cc1cc([N+](=O)[O-])ccc1Oc1ccc(Cl)c(Cl)c1,1.56 µg/mL,VERO,TYPE 1A,,83%
Cc1cccc(C2=CCN(c3ccc(Cl)nn3)CC2)c1,0.375 µg/mL,,100 serotypes,,53%
O=S(=O)([O-])c1ccc(NS(=O)(=O)c2ccccc2)c2c(S(=O)(=O)[O-])cccc12,50 µg/mL,Human amnion AV3 cells,,cytopathic effect,10%
CC1(C)COC(c2ccc(OCCN3CCN(c4ccc(Cl)nn4)CC3)cc2)=N1,32 µg/mL,,17 serotypes,,71%
O=S(=O)([O-])c1ccc2c(S(=O)(=O)[O-])cc(S(=O)(=O)[O-])cc2c1,5 µg/mL,Human embryonic lung cells,,cytopathic effect,10%
Cc1ccc(Cn2cnc3c(N(C)C)nc(C(F)(F)F)nc32)c(C)c1,8 µM,M-HELA,Serotype 29,plaque count,20%
Cc1cccc(N2CCN(c3ccc(Br)nn3)CC2)c1,1.4 µg/mL,,100 serotypes,,53%
CN(C)c1ccc(Cn2cnc3c(N(C)C)nc(C(F)(F)F)nc32)cc1,8 µM,M-HELA,Serotype 19,plaque count,23%
Cc1ccc(N2CCC(c3cccc(C(F)(F)F)c3)C2)nn1,0.016 µg/mL,,100 serotypes,,18%

The first 2 rows once more:

smiles,dose,cell line,strain or isolate,method,value
Cc1cc(Cl)ccc1Cn1cnc2c(N(C)C)nc(C(F)(F)F)nc21,8 µM,M-HELA,Serotype 13,plaque count,23%
Nc1ccc(S(=O)(=O)[O-])c2c(S(=O)(=O)[O-])ccc(O)c12,10 µg/mL,Human embryonic lung cells,,cytopathic effect,80%